Anti-infective test results gathered from many reports (values: NIAID ChemDB through PubChem).

Common to all: growth or infection tests; organism: HIV-1; method: cytopathic effect / XTT; endpoint: EC50

Neighbouring rows are from separate reports.

| compound | cell line | strain | mutations | result |
|---|---|---|---|---|
| CCOC(=O)c1sc(C(=O)O)cc1-c1cccs1 | CEM + CEM-SS | RF | - | 132 µM |
| CC(=O)N1C(=O)CC(=O)N(c2nnc(C)c(/C=C/c3ccc(N(C)C)cc3)n2)C1=S | CEM | - | - | >0.317 µM |
| CCOC(=O)c1cccn1S(=O)(=O)c1cccc(N)c1 | MT-4 | IIIB | - | >200 µM |
| Nc1nc(N)c2ncn([C@@H]3O[C@H](CO)C[C@@H]3F)c2n1 | ATH-8 + ATH8 | LAI | - | >100 µM |
| CCOC(=O)c1cccn1S(=O)(=O)c1cc(Cl)ccc1NC(=O)CBr | MT-4 | IIIB | - | >1.7 µM |
| CSc1s[s+]c(SC)c1-c1ccccc1 | CEM + CEM-SS | RF | - | 4.5 µM |
| Cc1ccc(NC(=O)c2cc(S(=O)(=O)N3CCNNC3=O)c(S)cc2Cl)cc1 | CEM | - | - | 49.9 µM |
| CCO[C@@H]1N([C@H]2C[C@H](N=[N+]=[N-])[C@@H](CO)O2)C(=O)NC(=O)[C@@]1(C)Cl | CEM + CEM-SS | RF | - | >200 µM |
| CC(C)(C)NC(=O)c1ccccc1C[C@@H](O)[C@H](Cc1ccccc1)NC(=O)[C@H](CC(N)=O)NC(=O)c1ccc2ccccc2n1 | CEM + CEM-SS | RF | - | 0.02 µM |
| COc1ccc(S(=O)(=O)O)cc1N=Nc1c(S(=O)(=O)O)cc2cc(Nc3nc(Nc4ccccc4)nc(Nc4cc(C)c(N=Nc5cc(S(=O)(=O)O)cc6cc(S(=O)(=O)O)cc(O)c56)cc4OC)n3)ccc2c1O | MT-2 | IIIB | - | 3.71 µM |
| Nc1ccn([C@H]2C[C@H](CO)[C@@H](CO)O2)c(=O)n1 | CEM + CEM-SS | RF | - | 0.02 µg/mL |
| Cn1c(=O)c2c(ncn2CCOc2ccc3cc2Cc2cc(ccc2OCCn2cnc4c2c(=O)n(C)c(=O)n4C)N=Cc2cccc(c2)C=Nc2ccc(OCCn4cnc5c4c(=O)n(C)c(=O)n5C)c(c2)Cc2cc(ccc2OCCn2cnc4c2c(=O)n(C)c(=O)n4C)N=Cc2cccc(c2)C=N3)n(C)c1=O | CEM + CEM-SS | RF | - | >25 µg/mL |
| NC(=O)C[C@H](NC(=O)c1ccccc1SSc1ccccc1C(=O)N[C@@H](CC(N)=O)C(N)=O)C(N)=O | CEM | IIIB | - | >21 µM |
| CCOC(=O)c1cccn1S(=O)(=O)c1ccc(NC=O)cc1 | MT-4 | IIIB | - | >114 µM |
| COc1cc(C)cc2c(-c3c(O)cc(O)c4c3C[C@H](C)N[C@H]4C)cc(-c3cc(-c4c(O)cc(O)c5c4C[C@H](C)N[C@H]5C)c4cc(C)cc(OC)c4c3O)c(O)c12 | - | IIIRF | - | ~20 µM |
| Nc1ccn([C@H]2CC[C@@H](CO)O2)c(=O)n1 | MT-4 | IIIB | - | 0.013 µg/mL |
| O=C(O)c1c(F)c(F)c(S)c(F)c1F | CEM + CEM-SS | RF | - | 125 µM |
| CCOC(=O)c1cccn1S(=O)(=O)c1ccc(NC(C)=O)cc1 | MT-4 | IIIB | - | >83.8 µM |
| Oc1ccc(-c2oc3cc(O)cc4c3c2-c2cc(O)cc(O)c2[C@H](c2ccc(O)cc2)[C@@H]4O)cc1 | CEM + CEM-SS | RF | - | >13 µg/mL |
| N#C/C(=C1\SC(=O)CN1c1ccc(Cl)cc1)c1nc2ccccc2o1 | CEM | - | - | 35.7 µM |
| O=[N+]([O-])c1ccc(C2ON=C(c3ccccc3)N2C23CC4CC(CC(C4)C2)C3)cc1 | CEM | - | - | >63 µM |
| CSc1cc(-c2ccc(Cl)cc2)s[s+]1 | CEM + CEM-SS | RF | - | 39 µM |
| CCN(CC)C(=S)S | CEM + CEM-SS | RF | - | >100 µM |
| O=C1Oc2cc3c(c4cccc1c24)OCN(c1ccccc1)C3 | CEM + CEM-SS | RF | - | >200 µg/mL |
| Cc1nnc(NC(=S)Nc2ccccc2)nc1/C=C/c1ccc(N(C)C)cc1 | CEM | - | - | >0.2 µM |
| CCO[C@H]1N([C@H]2C[C@H](N=[N+]=[N-])[C@@H](CO)O2)C(=O)NC(=O)[C@@]1(C)Cl | CEM + CEM-SS | RF | - | >200 µM |
| N#Cc1ccc(C2ON=C(c3ccccc3)N2C23CC4CC(CC(C4)C2)C3)cc1 | CEM | - | - | >63 µM |
| Nc1nc(NC2CC2)c2ncn([C@H]3C=C[C@@H](CO)C3)c2n1 | MT-2 | HXB2-D WT | - | 0.4 µM |
| COC[C@@H]1CC(NC(=O)[C@H](OCc2ccccc2)[C@H](O)[C@@H](O)[C@@H](OCc2ccccc2)C(=O)N[C@@H]2CO[C@H](COC)C2)CO1 | MT-4 | - | - | >10 µM |
| O=S(=O)(O)n1ccc2c(Cl)c(O)c(O)cc21 | CEM + CEM-SS | - | - | 10.6 µg/mL |
| Nc1nc2c(ncn2[C@H]2CC[C@@H](CO)O2)c(=O)[nH]1 | ATH-8 + ATH8 | LAI | - | <2 µM |
| CCOC[C@@H]1CC(NC(=O)[C@H](OCc2ccccc2)[C@H](O)[C@@H](O)[C@@H](OCc2ccccc2)C(=O)N[C@@H]2CO[C@H](COCC)C2)CO1 | MT-4 | - | - | >10 µM |
| CSc1nc2c(c(N(C)C)n1)C=Nn1c(nc3ccccc31)S2 | CEM + CEM-SS | OC(RT-L100I) | RT-L100I | 0.14 µM |
| CN1C(=O)c2ccccc2C1(N)c1ccccc1 | CEM + CEM-SS | RF | - | 10 µM |
| CCCCC(=O)Nc1ccc(Cl)cc1S(=O)(=O)n1cccc1C(=O)OCC | MT-4 | IIIB | - | 1.2 µM |
| Cc1ccc(C=C(C(=O)O)C(=O)O)o1 | CEM + CEM-SS | RF | - | 141 µM |
| O=C(O)CCCCCNC(=O)c1ccccc1SSc1ccccc1C(=O)NCCCCCC(=O)O | CEM | IIIB | - | 1.8 µM |
| CCOc1c(Cl)cc(F)c(CCNC(=S)Nc2ccc(Br)cn2)c1Cl | MT-4 | IIIB | RT-Y181C | 0.16 µM |
| O=C(NC1CO[C@H](CO)C1)[C@H](OCc1ccccc1)[C@H](O)[C@@H](O)[C@@H](OCc1ccccc1)C(=O)N[C@@H]1CO[C@H](CO)C1 | MT-4 | - | - | >10 µM |
| C[C@H](CC[C@H](C)C(C)(C)C)[C@H]1CC[C@H]2[C@@H]3C[C@H](OS(=O)(=O)O)[C@H]4C[C@H](OS(=O)(=O)O)[C@@H](OS(=O)(=O)O)C[C@]4(C)[C@H]3CC[C@]12C | CEM + CEM-SS | RF | - | 6 µM |
| CCCCCCCCCCCCCCCCO[C@H]1N([C@H]2C[C@H](N=[N+]=[N-])[C@@H](CO)O2)C(=O)NC(=O)[C@]1(C)Br | CEM + CEM-SS | RF | - | >11 µM |
| CCCc1cc(=O)oc2c3c(c4c(c12)OC(C)(C)CC4)O[C@H](C)[C@@H](C)[C@@H]3O | CEM + CEM-SS | IIIB | - | 0.17 µM |
| COc1ccc(C2C(C#N)=C(N)N3C(=C2C#N)Oc2ccccc23)cc1 | CEM | - | - | >200 µM |
| CC1=NN2C(=N)CC(=O)N=C2N=C1/C=C/c1ccc(N(C)C)cc1 | CEM | - | - | >0.634 µM |
| COc1cc(O)c(C2CCCCN2C)c2oc(-c3ccccc3)cc(=O)c12 | CEM + CEM-SS | RF | - | >5.7 µM |
| Cc1nnc(N)nc1/C=C/c1c(O)ccc2ccccc12 | CEM | - | - | >20 µM |
| Cc1cccc(C2ON=C(c3ccccc3)N2C23CC4CC(CC(C4)C2)C3)c1 | CEM | - | - | >2 µM |
| CCCCNC(=S)C(C#N)c1nc2ccccc2o1 | CEM | - | - | 32.6 µM |
| CO[C@H]1N([C@H]2C[C@H](N=[N+]=[N-])[C@@H](CO)O2)C(=O)NC(=O)[C@]1(C)Br | CEM + CEM-SS | RF | - | 5.79 µM |
| CCOC(=O)c1cccn1S(=O)(=O)c1cc(Cl)ccc1NC(=O)CC(C)C | MT-4 | IIIB | - | 4.6 µM |
| CC(C)=CCOc1cc(NC(=S)c2ccsc2C)ccc1Cl | CEM + CEM-SS | SK1 | - | 0.003 µM |
| CCOC(=O)c1cccn1S(=O)(=O)c1cc(Cl)ccc1NC(=O)c1ccccc1 | MT-4 | IIIB | - | 50 µM |
| O=C(O)C[C@H](NC(=O)c1ccccc1SSc1ccccc1C(=O)N[C@@H](CC(=O)O)C(=O)O)C(=O)O | CEM | IIIB | - | >100 µM |
| Cc1cc(S(=O)(=O)N2CCNNC2=O)c(S)cc1Cl.O | CEM | - | - | 9.99 µM |
| CCOC(=O)c1cccn1S(=O)(=O)c1cccc(NC(N)=O)c1 | MT-4 | IIIB | - | >200 µM |
| COc1cc(N=Nc2cc(S(=O)(=O)O)cc3cc(S(=O)(=O)O)cc(O)c23)c(C)cc1Nc1nc(Nc2ccccc2)nc(Nc2ccccc2)n1 | MT-2 | IIIB | - | 8.74 µM |
| CC(O)[C@@H]1CC(NC(=O)[C@H](OCc2ccccc2)[C@H](O)[C@@H](O)[C@@H](OCc2ccccc2)C(=O)N[C@H]2c3ccccc3C[C@H]2O)CO1 | MT-4 | - | - | 6.1 µM |
| Cn1c(=O)c2c(ncn2CCOc2ccc([N+](=O)[O-])cc2Cc2cc([N+](=O)[O-])ccc2OCCn2cnc3c2c(=O)n(C)c(=O)n3C)n(C)c1=O | CEM + CEM-SS | RF | - | >25 µg/mL |
| CC(C)=CCOc1cc(NC(=S)c2ccoc2C)ccc1Cl | CEM + CEM-SS | 4XAZT+L100I | - | 0.2 µM |
| CC(C)(C)OC(=O)[C@H](CCC(N)=O)NC(=O)c1ccccc1SSc1ccccc1C(=O)N[C@@H](CCC(N)=O)C(=O)OC(C)(C)C | CEM | IIIB | - | 3.3 µM |
| NC(=O)c1cccc(N=O)c1 | CEM + CEM-SS | RF | - | >10.6 µM |

Repeating the final 7 entries:

| compound | cell line | strain | mutations | result |
|---|---|---|---|---|
| CCOC(=O)c1cccn1S(=O)(=O)c1cccc(NC(N)=O)c1 | MT-4 | IIIB | - | >200 µM |
| COc1cc(N=Nc2cc(S(=O)(=O)O)cc3cc(S(=O)(=O)O)cc(O)c23)c(C)cc1Nc1nc(Nc2ccccc2)nc(Nc2ccccc2)n1 | MT-2 | IIIB | - | 8.74 µM |
| CC(O)[C@@H]1CC(NC(=O)[C@H](OCc2ccccc2)[C@H](O)[C@@H](O)[C@@H](OCc2ccccc2)C(=O)N[C@H]2c3ccccc3C[C@H]2O)CO1 | MT-4 | - | - | 6.1 µM |
| Cn1c(=O)c2c(ncn2CCOc2ccc([N+](=O)[O-])cc2Cc2cc([N+](=O)[O-])ccc2OCCn2cnc3c2c(=O)n(C)c(=O)n3C)n(C)c1=O | CEM + CEM-SS | RF | - | >25 µg/mL |
| CC(C)=CCOc1cc(NC(=S)c2ccoc2C)ccc1Cl | CEM + CEM-SS | 4XAZT+L100I | - | 0.2 µM |
| CC(C)(C)OC(=O)[C@H](CCC(N)=O)NC(=O)c1ccccc1SSc1ccccc1C(=O)N[C@@H](CCC(N)=O)C(=O)OC(C)(C)C | CEM | IIIB | - | 3.3 µM |
| NC(=O)c1cccc(N=O)c1 | CEM + CEM-SS | RF | - | >10.6 µM |

ECn is the concentration giving n% inhibition of infection, replication or growth. An empty or dashed field is not shown.